Here are results for one substance from US20090047272A1.

The target of this experiment is HIV protein gp120 on HIV-infected MT-4 cells (HIV). Briefly: cell-based or functional assay.

“Bovine DNase-PEG-CD4 complex (from UniProt P00639 23-282; P01730 26-396)” showed a Mean RT Activity [%] in HIV-infected MT-4 cells at 100 UA/ml of 11%, a Mean RT Activity [%] in HIV-infected MT-4 cells at 500 UA/ml of 4%, a p24 [%] in HIV-infected MT-4 cells at 100 UA/ml of 6.5% and a p24 [%] in HIV-infected MT-4 cells at 500 UA/ml of 2.3%.
